{
  "source": "patent US6355785B1",
  "about": "“Guanosine-rich oligonucleotide integrase inhibitors” (Aronex Pharmaceuticals, Inc., priority 1993, dated 2002)",
  "target": "recombinant RT (HIV-1BH10) (Human immunodeficiency virus type 1 group M subtype B, UniProt P03366)",
  "experiment": "Reverse transcriptase enzyme inhibition assays",
  "settings": "read-out: IC50 recombinant HIV-1 RT; template ribosomal RNA, duplicate experiments",
  "note": "Not every entry of the source has a single result; some have several. The other results are left out here. There may be further records. Results that share an entry appear to be repeats (runs, samples, wells or individuals).",
  "data": [
    {"molecule": "Cc1cn([C@H]2C[C@H](N=[N+]=[N-])[C@@H](COP(=O)(O)OP(=O)(O)OP(=O)(O)O)O2)c(=O)[nH]c1=O", "values": [
      {"measurement": "IC50", "value": "19 nM and 8 nM"}
    ]}
  ]
}
